# Assay results taken from patent KR20200072008A (dated 2020).
# B1: B4 (antibody, V domains shown)
# VH: EVKLVESGGGLVKPGGSLKLSCAASGFTFSNYGMSWVRQTPEKRLEWVATISSGGSYTYYPDSVKGRFTISRDNAKNTLYLQMSSLRSEDTAMYYCARHEGGGNPYFDYWGQGTTLTVSS
# VL: DVLMTQTPLSLPVSLGDQASISCRSSQSLVHSNGNTYLHWYLQKPGQSPKLLIYKVSNRFSGVPDRFSGSGSGTDFTLKISRVEAEDLGVYFCSQNTLVPWTFGGGTKLEIK
# Target: SNAP25 197 from lysate of BoNT/A treated N2-42F cells (mouse, UniProt P60879 1-197)
# Assay: sandwich ELISA; 400 ng capture IgG per well; […] C16 IgG-HRP detection
binder,measurement,value
B1,binding result,binds
